B1: BD55-583 (protein)
chain 1: QVQLVQSGAEVKKPGSSVKVSCKASGGTFSSYAISWVRQAPGQGLEWMGGIIPIFGTTNYAQKFQGRVTITADESTSTAYMELSSLRSEDTAVYYCATFGDAVFGTANDYWGQGTLVTVSS
chain 2: EIVLTQSPGTLSLSPGERATLSCRASQSVSSNYLAWYQQKPGQAPRLLIYGASSRATGIPDRFSGSGSGRDFTLTISRLEPEDFAVYYCQQYGSSRTFGQGTKVEIK
B2: BD-623 (protein)
chain 1: EVQLVESGGGLVQPGGSLRLSCAASGVTVSSNYMSWVRQAPGKGLEWVSAVYSGGSTYYADSVKGRFTISRHNSKNTLYLQMKSLRPEDTAIYYCARLINHYYDSSGDGGAFDIWGQGTMVTVSS
chain 2: QSALTQPASVSGSPGQSITISCTGTSSDVGSYNLVSWYQQRPGKAPKLILYEVTKRPSGVSNRFSGSKSGNTASLAISGLQAEDEADYYCCSYAGSSTWVFGGGTKLTVL
B3: BD55-606 (protein)
chain 1: QVQLQQWGAGLLKPSETLSRTCAVYGGSFSGYYWTWIRQPPGKGLEWIGDIHHSGSTNYNPSLKSRVTMSVDTSKNQFSLELRSVSAADTAVYYCVRGFEGYCSGGRCYSYFDYWGQGTLVTVSS
chain 2: EIVMTQSPATLSVSPGERATLSCRASQSVSSNLAWYQQKPGQAPRLLIYGASSRATGIPARFSGSGSGTEFTLTISSLQSGDFGVYYCQQYNNWPYTFGQGINLEIK
B4: BD55-965 (protein)
chain 1: QVQLVQSGPEVAKPGSSVKVSCQASGDNFSKYSISWVRQAPGQGLEWMGRILPVVGAASSAKKFQGRVTISADKSTSTAYMEMTSLRSEDTAIYYCASAPSPTNPQSHCSGTSCPLDVWGQGTTLIVSS
chain 2: EIVLTQSPGTLSLSPGERATLSCRASQSVNSAYLAWYQQKPGQAPRLLIYGASNRATGIPDRFSVSGSGTDFTLTISRLDPEDFAVYFCQQYHGSPWTFGQGTKV
B5: BD55-958 (protein)
chain 1: QVQLHQWGAGLLKPSETLSRTCAVYGGSFSGFFWAWIRQSPEKGLEWIGEISDTGDTNYNPSLKSRLALSVDTFKNQFSLTLTSVTAADTSTYFCVRGPNRHCRAGSCNTYVYWSQGTLVTVSS
chain 2: EIVLTQSPGTLSLSPGSTATLFCRASQAISGNYLAWFQQRPGQAPRLLIYDASSRATAVPDRFSGGGSGTDFTLTIKGLEPEDFAVYYCHQYGTLPITFGQGTKIEVK
B6: BD55-600 (protein)
chain 1: QVQLVESGGGVVQPGRSLRLSCAASGFTFRSYAMHWVRQAPGKGLEWVALISYDGNNKYYVDSVKGRFTISRDNSENTLYLHMNSLRVEDTAVYYCARGPWHDWAPWYLDLWGRGTLVTASS
chain 2: DIQMTQSPSSLSASVGDRVTITCRASQGISSWLAWYQQKPEKAPKSLIYAASSLQSGVPSRFSGSGSGTDFTLTISSLQPEDFATYYCQQYNSYPLTFGGGTKVEIK
B7: BD-618 (protein)
chain 1: EVQLVESGGGLVQPGGSLRLSCAVSGFIVSRNYMTWVRQAPGKGLEWVSLIYSGGSTFYTNSVKGRFTISRDNSKNTLYLQMDSLRAEDTAVYYCARGPYPRFDYWGQGTLVTVSS
chain 2: not shown
B8: BD55-663 (protein)
chain 1: QVQLVQSGAEVKKPGSSVKVSCKASGGTFSRYAISWVRQAPGQGLEWMGGIIPMFGTANYAQKFQGRVTITADESTSTAYMELSSLRSEDTAVYYCAREMITFGGVIVEKFGRYYYYYGMDVWGQGTTVTVSS
chain 2: EIVLTQSPGTLSLSPGERATLSCRASQSVSSNYLAWYQQKPGQAPRLLIYGASSRASGIPDRFNGSGSGTDFTLTISRLEPEDFAVYYCQQYGSSARTFGQGTKVEIK
B9: BD55-767 (protein)
chain 1: QVQLVQSGAEVKKPGSSVRVSCEVSGGTFNMYTFNWVRQAPGQGLEWMGKIIPILNVVDYPQKFQGRVAITADKSTNTAYMEMSSLRSEDTAMYYCAKDLVSSTSGGFDYWGQGTLVTVSS
chain 2: QSVLTQPPSVSGAPGQRVTISCTGGNSNIGAGYEVHWYQKLPGTAPKLLIYGTTNRPSGVPDRFSGSKSDTSASLAITGLQPEDEADYYCHSYDSSLTGWVFGGGTKVTVL
B10: BD55-603 (protein)
chain 1: EVQLVESGGGLVQPGGSLRLTCAASGFTFSSYWMSWVRQAPGKGLEWVANIKQDGSEKYYVDSVKGRFTISRDNAKNSLYLQMNSLRAEDTAVYYCARGLKEVTAILSEGIDYWGQGTLVTVSS
chain 2: SYELTQPPSVSVSPGQTARITCSGDALPKQYAYWYQQKPGQAPVLVIYKDSERPSGIPERFSGSSSGTTVTLTISEVQAEDEADYYCQSADSSGVVFGGGTKLTVL
B11: BD55-598 (protein)
chain 1: QVQLQQSGPGLVKPSQTLSLTCAISGDSVSSNSAAWNWIRQSPSRGLEWLGRTYYRSKWYNDYAVSVKSRITINPDTSKNQFSLQLNSVTPEDTAVYYCARDRLNSWVGEYYYDSDAFDIWGQGTMVTVSS
chain 2: SYELTQSFSVSVALGQTARITCGGNNIGSKNVHWYQQKPGQAPVLVIYRDSNRPSGIPERFSGSNSGNTATLTISRAQAGDEADYYCQVWDSSTWVFGGGTKLTVL
B12: BD55-676 (protein)
chain 1: QLQLQESGPGLVKPSETLSLTCTVSGGSISSTSYYWGWIRQPPGKGLECIGTMFHSGRTYYSPSLKSRVTISVDTSKNQFSLKLSSVTAADTAVYYCSTLQWLRGFFHYWGQGTLVTVSS
chain 2: NFMLTQPHSVSESPGKTVTISCTRSSDSIASNYVQWYQQRPGSAPTTVIYEDNQRPSGVPDRFSGSIDSSSNSASLTISGLKTEDEADYYCQSYDSSNRFWVFGGGTKLTVL
B13: BD55-599 (protein)
chain 1: EVQLVQSGAEVKKPGESLKISCKGSGYSFTRYWIAWVRQTPGKGLEWMGIIYPGDSDTRYSPSFQDQVTISADKSISTAFLQWSSLKASDTAMYFCARASSPFYYGSGSYQGGMDVWGQGTTVSVSS
chain 2: EIVMTQSPATLSVSPGERATLSCRASQRVSSNLAWYQQKPGQAPRLLIYGASTRATGIPARFSGSGSGTEFTLTISSLQSEDFALYYCQQYNNWPGEFTFGPGTTVDIK

Human monoclonal antibodies against the spike receptor-binding domain (heavy:light variable regions). IC50 against pseudoviruses bearing the spike of naturally observed variants; lower = stronger; >10 µg/ml means not reached at the top dose. No active / inactive call. The stated detection limit is 0.0005 µg/ml; values near or below 0.001 µg/ml lie at the floor of the assay.

The target in the first experiment is SARS-CoV-2 Omicron BA.1 spike pseudovirus. Put plainly: pseudovirus neutralization IC50; higher = weaker neutralization. As for the experimental part:
(§1)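 Single-round VSV luciferase pseudovirus mixed with antibody dilutions for 1 h and put on Huh-7 cells for about a day; IC50 from the dose curve.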
With B1, the “pseudovirus neutralization IC50” value is more than 10 µg/mL.
The same measure, in the same setting: next, B2: more than 10 µg/mL; B3: more than 10 µg/mL; B4: 0.0872 µg/mL.
B5: the “pseudovirus neutralization IC50” value is more than 10 µg/mL.
For B6, the “pseudovirus neutralization IC50” value is more than 10 µg/mL.
In the case of B7, the “pseudovirus neutralization IC50” value is 0.049 µg/mL.
As for B8, the “pseudovirus neutralization IC50” value was more than 10 µg/mL.
Same read-out and setting: under B9 stands 0.0236 µg/mL; under B10, more than 10 µg/mL.
Still for that read-out and setting: under B11 stands more than 10 µg/mL; under B12, more than 10 µg/mL.
Same read-out and setting: under B13 stands more than 10 µg/mL.

The next experiment deals with SARS-CoV-2 Omicron BA.2 spike pseudovirus. Described as above. As for the experimental part:
as §1
B1: the “pseudovirus neutralization IC50” value was more than 10 µg/mL.
Still for that read-out and setting: under B2 stands more than 10 µg/mL.
Regarding B3, the “pseudovirus neutralization IC50” value was more than 10 µg/mL.
Regarding B4, the “pseudovirus neutralization IC50” value came out at 0.0455 µg/mL.
Take B5: the “pseudovirus neutralization IC50” value is more than 10 µg/mL.
B6: the “pseudovirus neutralization IC50” value was more than 10 µg/mL.
Still for that read-out and setting: under B7 stands 0.065 µg/mL; under B8, more than 10 µg/mL; under B9, 0.0258 µg/mL.
The same measure, in the same setting: next, B10: more than 10 µg/mL; B11: more than 10 µg/mL.
On to B12, for which the “pseudovirus neutralization IC50” value is more than 10 µg/mL.
Still for that read-out and setting: next, B13: more than 10 µg/mL.

The next experiment has as its target SARS-CoV-2 Omicron BA.2.75 spike pseudovirus. Described as above. The protocol: as §1
As to B1, the “pseudovirus neutralization IC50” value is more than 10 µg/mL.
On the same count and under the same terms, next, B2: more than 10 µg/mL; B3: more than 10 µg/mL; B4: 0.0463 µg/mL.
Consider B5, for which the “pseudovirus neutralization IC50” value is more than 10 µg/mL.
Turning to B6, the “pseudovirus neutralization IC50” value was more than 10 µg/mL.
On the same count and under the same terms, next, B7: more than 10 µg/mL.
B8: the “pseudovirus neutralization IC50” value was more than 10 µg/mL.
As to B9, the “pseudovirus neutralization IC50” value came to 0.023 µg/mL.
Take B10: the “pseudovirus neutralization IC50” value was more than 10 µg/mL.
Still for that read-out and setting: under B11 stands more than 10 µg/mL; under B12, more than 10 µg/mL.
On the same count and under the same terms, next, B13: more than 10 µg/mL.

The next experiment deals with SARS-CoV-2 Omicron BA.5 spike pseudovirus. The description is as above. As for the experimental part: as §1
On to B1, for which the “pseudovirus neutralization IC50” value is more than 10 µg/mL.
The same measure, in the same setting: next, B2: more than 10 µg/mL; B3: more than 10 µg/mL; B4: more than 10 µg/mL.
For B5, the “pseudovirus neutralization IC50” value is more than 10 µg/mL.
B6: the “pseudovirus neutralization IC50” value was more than 10 µg/mL.
In the case of B7, the “pseudovirus neutralization IC50” value was 0.0551 µg/mL.
On the same count and under the same terms, next, B8: more than 10 µg/mL; B9: 0.936 µg/mL.
Consider B10, for which the “pseudovirus neutralization IC50” value is more than 10 µg/mL.
On the same count and under the same terms, under B11 stands more than 10 µg/mL.
For B12, the “pseudovirus neutralization IC50” value is more than 10 µg/mL.
With B13, the “pseudovirus neutralization IC50” value is more than 10 µg/mL.

For a further experiment, the target named is SARS-CoV-2 Omicron BQ.1.1 spike pseudovirus. The description is as above. As for the experimental part: as §1
Regarding B1, the “pseudovirus neutralization IC50” value was more than 10 µg/mL.
Same read-out and setting: under B2 stands more than 10 µg/mL; under B3, more than 10 µg/mL; under B4, more than 10 µg/mL.
Same read-out and setting: under B5 stands more than 10 µg/mL; under B6, more than 10 µg/mL; under B7, 2.74 µg/mL.
Same read-out and setting: next, B8: more than 10 µg/mL; B9: more than 10 µg/mL; B10: more than 10 µg/mL.
With B11, the “pseudovirus neutralization IC50” value was more than 10 µg/mL.
Regarding B12, the “pseudovirus neutralization IC50” value was more than 10 µg/mL.
Same read-out and setting: under B13 stands more than 10 µg/mL.

The next experiment deals with SARS-CoV-2 Omicron XBB spike pseudovirus. Described as above. As for the experimental part: as §1
In the case of B1, the “pseudovirus neutralization IC50” value was more than 10 µg/mL.
On the same count and under the same terms, under B2 stands more than 10 µg/mL; under B3, more than 10 µg/mL.
Same read-out and setting: under B4 stands more than 10 µg/mL; under B5, more than 10 µg/mL.
Regarding B6, the “pseudovirus neutralization IC50” value was more than 10 µg/mL.
The same measure, in the same setting: next, B7: more than 10 µg/mL; B8: more than 10 µg/mL.
On the same count and under the same terms, next, B9: more than 10 µg/mL; B10: more than 10 µg/mL.
On to B11, for which the “pseudovirus neutralization IC50” value is more than 10 µg/mL.
Still for that read-out and setting: under B12 stands more than 10 µg/mL.
On the same count and under the same terms, under B13 stands more than 10 µg/mL.

The target of a further experiment is SARS-CoV-2 early D614G spike pseudovirus. The description is as above. As for the experimental part:
as §1
For B1, the “pseudovirus neutralization IC50” value is more than 10 µg/mL.
On the same count and under the same terms, under B2 stands 0.0017 µg/mL.
For B3, the “pseudovirus neutralization IC50” value was found to be 0.142 µg/mL.
Same read-out and setting: under B4 stands 0.00165 µg/mL; under B5, more than 10 µg/mL.
As for B6, the “pseudovirus neutralization IC50” value turned out to be 0.0655 µg/mL.
In the case of B7, the “pseudovirus neutralization IC50” value was determined as 0.0267 µg/mL.
With B8, the “pseudovirus neutralization IC50” value is more than 10 µg/mL.
For B9, the “pseudovirus neutralization IC50” value amounted to 0.101 µg/mL.
Same read-out and setting: under B10 stands more than 10 µg/mL.
Still for that read-out and setting: next, B11: more than 10 µg/mL; B12: 1.57 µg/mL.
Same read-out and setting: under B13 stands more than 10 µg/mL.
